The list shows a part of the results, in another mix than the full data. Records with an inconclusive call do not appear. Active and inactive are the calls of the source. Unless noted, calls come from the whole dose curve; as a rule, active = well fitted inhibition curve with a large enough effect; inconclusive = small, poorly fitted or top-dose-only effect; inactive = no such curve, though single readings can be large or run the other way.

We go through 6 compounds from PubChem BioAssay (NCATS).

The nature of one test: NS1 protein of Zika virus - qHTS assay to identify small molecule inhibitors in human HEK 293 cells (AID 1347053).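 Note: plate controls were infected untreated cells for no effect and uninfected cells for full effect; nearly all actives have a fitted effect of over 55% in size.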 The conditions noted are these: HEK293 ZIKV MR766 infection, NS1 TR-FRET, 24 h; at 46.1 µM (top of the series) unless noted. An outline of the steps:
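In this cell-based screen, HEK 293 cultures received compound for one hour before Zika MR766 at MOI = 0.5. NS1 was quantified 24 hours later by TR-FRET, normalized to virus-free wells and infected wells.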
In general terms: Quantitative high-throughput screening tests each substance at several concentrations.
As to `C/C1=C2N=C(/C=C3N=C(/C(C)=C4\[N-][C@@](C)([C@@H]5N=C1[C@](C)(CCC(=O)NC[C@@H](C)OP(=O)([O-])O[C@H]1[C@@H](O)[C@@H](n6cnc7cc(C)c(C)cc76)O[C@@H]1CO)[C@H]5CC(N)=O)[C@@](C)(CC(N)=O)[C@@H]4CCC(N)=O)[C@@](C)(CC(N)=O)[C@@H]\3CCC(N)=O)C(C)(C)[C@@H]/2CCC(N)=O.[C-]#N.[Co+3]`, the activity change, negative = inhibition was inactive: 8.66%.
As to `CC1=C2[N-][C@@](C)([C@@H]3N=C(C(C)=C4N=C(C=C5N=C1[C@@](C)(CC(N)=O)[C@H]5CCC(N)=O)C(C)(C)[C@H]4CCC(N)=O)[C@](C)(CCC(=O)NC[C@@H](C)OP(=O)([O-])O[C@H]1[C@@H](O)[C@@H](n4cnc5cc(C)c(C)cc54)O[C@H]1CO)[C@H]3CC(N)=O)[C@@](C)(CC(N)=O)[C@@H]2CCC(N)=O.[C-]#N.[Co+3]`, the activity change, negative = inhibition is inactive: 3.91% [at 20.1 µM].
Still for that read-out and setting: then `Cc1cccc([N+](=O)[O-])c1[N+](=O)[O-]`, with inactive: 3.19% [at 92.8 µM]; and `CCOP(=O)(CC)Oc1ccc([N+](=O)[O-])cc1` (stereo not given), with inactive: -16.2%; and `O=[N+]([O-])c1cccc([N+](=O)[O-])c1`, with inactive: -28.3% [at 92.8 µM].
On the same count and under the same terms, then `OCCSCCO`, with inactive: 3.4%.

A further test is described as follows: qHTS for Inhibitors of the Functional Ribonucleoprotein Complex (vRNP) of Lassa (LASV) Arenavirus: LASV Primary Screen - GLuc reporter signal (AID 1347082; calls by dose curve; tested in HEK293 reporter line; note: % is set by controls: 0 for no effect and ±100 for the full control effect; nearly all actives have a fitted effect of over 60% in size). The note with it: LASV minigenome vRNP, Gaussia luciferase reporter; at 57.5 µM (top of the series) unless noted.
With `C/C1=C2N=C(/C=C3N=C(/C(C)=C4\[N-][C@@](C)([C@@H]5N=C1[C@](C)(CCC(=O)NC[C@@H](C)OP(=O)([O-])O[C@H]1[C@@H](O)[C@@H](n6cnc7cc(C)c(C)cc76)O[C@@H]1CO)[C@H]5CC(N)=O)[C@@](C)(CC(N)=O)[C@@H]4CCC(N)=O)[C@@](C)(CC(N)=O)[C@@H]\3CCC(N)=O)C(C)(C)[C@@H]/2CCC(N)=O.[C-]#N.[Co+3]`, the activity change, negative = inhibition was inactive: -4.82%.
As to `CC1=C2[N-][C@@](C)([C@@H]3N=C(C(C)=C4N=C(C=C5N=C1[C@@](C)(CC(N)=O)[C@H]5CCC(N)=O)C(C)(C)[C@H]4CCC(N)=O)[C@](C)(CCC(=O)NC[C@@H](C)OP(=O)([O-])O[C@H]1[C@@H](O)[C@@H](n4cnc5cc(C)c(C)cc54)O[C@H]1CO)[C@H]3CC(N)=O)[C@@](C)(CC(N)=O)[C@@H]2CCC(N)=O.[C-]#N.[Co+3]`, the activity change, negative = inhibition was inactive: -4.89%.
With `Cc1cccc([N+](=O)[O-])c1[N+](=O)[O-]`, the activity change, negative = inhibition is inactive: -19.4% [at 115 µM].
In the case of `OCCSCCO`, the activity change, negative = inhibition was inactive: 7.03%.
